Publication doi:10.1101/2025.02.16.638509 (bioRxiv, 2025)

Target: the molecule itself
Experiment: fluorescence polarisation

B1: Orf9b Delta variant (T60A), refolded (natural protein)
chain: not shown
Kd: 12 µM
